These results are taken from ChEMBL document CHEMBL3596145, “Structure and inhibition studies of a type II beta-carbonic anhydrase psCA3 from Pseudomonas aeruginosa” (Bioorg Med Chem, 2015).

Chains of the proteins cited; added tags and fusions are not shown. Residues count along the entry.
UniProt Q9HVB9, 1-215: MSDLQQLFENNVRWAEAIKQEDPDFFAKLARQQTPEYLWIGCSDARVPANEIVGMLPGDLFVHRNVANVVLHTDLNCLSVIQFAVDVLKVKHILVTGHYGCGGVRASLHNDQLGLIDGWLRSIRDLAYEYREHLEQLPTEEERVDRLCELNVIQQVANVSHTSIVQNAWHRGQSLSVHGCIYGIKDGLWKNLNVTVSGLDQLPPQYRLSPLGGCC

This test addresses Carbonic anhydrase (Pseudomonas aeruginosa (strain ATCC 15692 / PAO1 / 1C / PRS 101 / LMG12228), UniProt Q9HVB9). As to the kind of experiment: Inhibition of Pseudomonas aeruginosa PAO1 type-2 beta-carbonic anhydrase psCA3 expressed in Escherichia coli Tuner BL21 (DE3) cells pre-incubated for 15 mins at pH 8.3 and 293K by CO2 hydration reaction based colorimetric stopped-flow method.

Usually Ki stands for the dissociation constant of the complex between target and ligand, obtained from inhibition or displacement. High values mean a looser hold on the target, low ones a stronger hold on the target. For the compound `O=[As](O)(O)c1ccccc1`, the Ki came out at 9 µM.
